Tested on: MDCK cells
Details: dog

## NC(=O)c1ncn([C@@H]2O[C@H](CO)[C@@H](O)[C@H]2O)n1 [Ribavirin, reference compound]
  CC10: >300.0 µM
